According to PubChem BioAssay AID1347131 (National Center for Advancing Translational Sciences (NCATS), 2019):
Values joined by “and” are separate entries in the source; they are usually repeats but may differ in a detail not shown here. Equal entries are not always repeated. Some of the results follow. Records with an inconclusive call do not appear. Active and inactive are the calls of the source. The call rests on the fitted dose curve; tested in HEK293 reporter line.

Assay: qHTS Assay for Foot and Mouth Disease Virus Antivirals: Primary Screen against the MLPCN compound library; further: nearly all actives have a fitted effect of over 55% in size
Conditions: FMDV antiviral cell-based qHTS; at 57.9 µM (top of the series)

Compound	activity, negative = inhibition
O=C(Nc1cc([As](=O)(O)O)ccc1O)c1ccccc1	inactive: -8.33%
O=P1(N(CCCl)CCCl)OCCCS1 (centres undefined)	inactive: 12.4%
O=C(O)CNc1ccc([As](=O)(O)O)cc1	inactive: -3.87%
O=[N+]([O-])c1cccc(NC2=NCC(CBr)S2)c1 (centres undefined)	inactive: 9.35%
COC(=O)C1(C)COP(=O)(Nc2ccccc2)OC1 (centres undefined)	inactive: -0.023%
O=[N+]([O-])c1ncn(CCn2ncnc2[N+](=O)[O-])n1	inactive: -7.33%
O=[N+]([O-])c1cc([N+](=O)[O-])c(CCNc2ccccc2)c([N+](=O)[O-])c1	inactive: -22%
Cc1ccc(NP(=O)(Oc2ccccc2)Oc2ccccc2)nc1	inactive: 45.8%
O=[N+]([O-])c1cccc2n[nH]nc12	inactive: 19.6%
CC(=O)N1C2C3N(C(C)=O)C1C1N(C(C)=O)C(C(N1C(C)=O)N3C(C)=O)N2C(C)=O	inactive: 9.31%
COc1ccc(C2=NCC(CBr)S2)cc1 (centres undefined)	inactive: 25.4%
c1cc(-c2nn[nH]n2)ccc1-c1nn[nH]n1	inactive: -15.5%
CC(=O)C1=CCCC2CCC1N2 (centres undefined)	inactive: -12.9%
CC1CCN(C(=O)Oc2c(Cl)cc(Cl)c3cccnc23)CC1	inactive: 13.1%
CN(C)C(=O)OCCc1n(C)cc[n+]1C	inactive: -4.08%
CC(C)=N/N=C(\N)N[N+](=O)[O-]	inactive: -9.32%
CC(C)c1nc(Nc2ccccc2)n(P(=O)(N(C)C)N(C)C)n1	inactive: -18.3%
CCN(/C(=N/P(=O)(N1CCOCC1)N1CCOCC1)N1CCOCC1)c1ccc(OC)cc1	inactive: -2.98%
Nc1ccc([As](=O)(O)c2ccc(N)cc2)cc1	inactive: -0.643%
Clc1ccc(Cl)c(NC2=NCC(CBr)S2)c1 (centres undefined)	inactive: -8.04%
CN1CCCC(OC(=O)C(c2ccccc2)c2ccccc2)C1 (centres undefined)	inactive: -15.4%
Cc1ccc(OP(=O)(Nc2nccs2)Oc2ccc(C)cc2)cc1	inactive: 34.4%
COc1ccccc1OP(=O)(Nc1ccc(C)cn1)Oc1ccccc1OC	inactive: -16.5%
Cc1ccc(N/C(=N/P(=O)(N2CCOCC2)N2CCOCC2)N2CCOCC2)cc1	inactive: 5.06%
CN(C(=O)Cc1ccc(Cl)c(Cl)c1)[C@H]1CCCC[C@H]1N1CCCC1	inactive: -10.3%
NC(=O)c1cc([N+](=O)[O-])cc([N+](=O)[O-])c1N	inactive: -11.8%

Compound	activity, negative = inhibition
O=[N+]([O-])C1C(O)C(O)C([N+](=O)[O-])C(O)C1O (centres undefined)	inactive: -20.8%
O=C(NC(Sc1ccncn1)C(Cl)(Cl)Cl)c1ccccc1 (centres undefined)	inactive: 4.08%
Nc1cc(N)c2nonc2c1[N+](=O)[O-]	inactive: -3.26%
Cc1ccc(NP(=O)(Oc2ccccc2F)Oc2ccccc2F)nc1	inactive: 7.99%
CN(C(=O)Cc1ccc(Cl)c(Cl)c1)[C@H]1CCCC[C@@H]1N1CCCC1	inactive: -17.1% [middle of 7 runs]
CCOP(=O)(Nc1ccccc1)OCC	inactive: -16.9%
Cc1cc(SC(NC(=O)c2ccc(F)cc2)C(Cl)(Cl)Cl)ncn1 (centres undefined)	inactive: 0%
CN(C)P(=O)(N(C)C)n1c(Nc2ccccc2)nnc1-c1ccccc1	inactive: 29%
O=P(Nc1nc2ccc(Cl)cc2s1)(c1ccccc1)c1ccccc1	inactive: 31.4%
CCCC1OP(N)(=O)OCC1CC (centres undefined)	inactive: 30.4%
O=C(O)c1ccccc1[As](=O)(O)O	inactive: -7.17%
CC(=O)Nc1ccc([As](=O)(O)O)cc1	inactive: -4.05%
Nc1cccc2ccc([As](=O)(O)O)cc12	inactive: -9.12%
CCN(N=Nc1nonc1N)c1nonc1N	inactive: -9.36%
O=P1(N(CCCl)CCCl)OCCC2CCCCN21 (centres undefined)	inactive: 0.551%
Cc1ccc(NP(=O)(Oc2cccc(C)c2)Oc2cccc(C)c2)nc1	inactive: 22.8%
c1ccc(-c2nn[nH]n2)c(-c2nn[nH]n2)c1	inactive: -3.2%
CCNC(=S)/N=C(\N)N[N+](=O)[O-]	inactive: -10.4%
O=C(NC1CCS(=O)(=O)C1)NP(=S)(Oc1ccccc1)Oc1ccccc1 (centres undefined)	inactive: 107%
CN(C)C(=O)Oc1noc2ccccc12	inactive: -6.7%
CC(NC(=O)COC(=O)C(O)(c1ccccc1)c1ccccc1)c1ccccc1 (centres undefined)	inactive: -36.4%
CCC(=O)N1C2C3N(C(=O)CC)C1C1N(C(=O)CC)C(C(N1C(=O)CC)N3C(=O)CC)N2C(=O)CC	inactive: -0.0905%
O=C(OC1CN2CCC1CC2)c1ccccc1 (centres undefined)	inactive: -10.2%
Cc1ccc(OP(=O)(Nc2ccccn2)Oc2ccc(C)cc2)cc1	inactive: -18.8%
CC(=O)NC(SC(=S)N(CC(C)C)CC(C)C)C(Cl)(Cl)Cl (centres undefined)	inactive: 0%
COC(=O)c1cc2c(s1)N=C(c1ccccc1)N(C)P2(=O)N1CCOCC1 (centres undefined)	inactive: -5.69%

Compound	activity, negative = inhibition
CC(C)(C)C(=O)NC(Sc1ccccc1)C(Cl)(Cl)Cl (centres undefined)	inactive: -17.8%
CCc1cc(O)c([N+](=O)[O-])c(C)c1[N+](=O)[O-]	inactive: -25.5%
CCOc1ccc(C2=NCC(CBr)S2)cc1 (centres undefined)	inactive: 6.65%
O=P1(Nc2nc3ccc(Cl)cc3s2)COc2ccccc2O1 (centres undefined)	inactive: 15%
CC(=O)Nc1ccc(Oc2c([N+](=O)[O-])cc([N+](=O)[O-])cc2[N+](=O)[O-])cc1	inactive: -8.79%
CC(=O)Nc1ccc([As](=O)(O)O)c(O)c1	inactive: -13.9%
C[C@@H]1C=CCP(=O)(Oc2ccccc2)O1 (some centres undefined)	inactive: -6.36%
C[C@H]1OP(=O)(Oc2ccccc2)C[C@@H]2O[C@@H]21 (some centres undefined)	inactive: -14.1%
Cc1ccccc1CN(C)C(=O)COC(=O)C(O)(c1ccccc1)c1ccccc1	inactive: -0.809%
COC(=O)C1(C)COP(=O)(NCc2ccccc2)OC1 (centres undefined)	inactive: -20.8%
N#C/C(=C\c1ccc(N(CCBr)CCBr)cc1)C(N)=O	inactive: -37.5%
CC(=O)c1ccc(N2CC2c2ccncc2)cc1 (centres undefined)	inactive: -1.46%
c1nnnn1CCn1cnnn1	inactive: 1.69%
CC(C)C(=O)NC(Sc1ccccc1)C(Cl)(Cl)Cl (centres undefined)	inactive: -12.1%
O=P(Nc1nccs1)(c1ccccc1)c1ccccc1	inactive: -9.77%
C[C@H]1OP(=O)(Oc2ccccc2)[C@H](O)[C@H](O)[C@H]1N=[N+]=[N-] (some centres undefined)	inactive: -10.3%
O=P(Nc1nc2ccccc2s1)(c1ccccc1)c1ccccc1	inactive: 74.6%
O=P(Nc1ccccn1)(c1ccc(Br)cc1)c1ccc(Br)cc1	inactive: 66.4%
CN(C)C1(CNC(=O)c2ccc(Cl)c(S(N)(=O)=O)c2)CCCCC1	inactive: -7.46%
Nc1ccc(CCCCOc2ccccc2)cc1	inactive: 32%
COc1ccc(N)c([N+](=O)[O-])c1[N+](=O)[O-]	inactive: 0.924%
O=C(OC1CN2CCC1CC2)c1cccc(Cl)c1 (centres undefined)	inactive: -5.13%
Nc1ccc([As](=O)(O)c2ccc([N+](=O)[O-])cc2)cc1	inactive: 25.6%
C(Cc1nn[nH]n1)Cc1nn[nH]n1	inactive: -16.1%
O=[As](O)(c1ccccc1)c1ccc(O)cc1	inactive: 6.37%
O=[N+]([O-])c1ncn(CCn2cnc([N+](=O)[O-])n2)n1	inactive: -11.1%

Compound	activity, negative = inhibition
CN(C)C1(CNC(=O)c2ccc(S(C)(=O)=O)cc2)CCCCC1	inactive: 1.08%
CCCC1OP(=O)(Nc2ccccc2)OCC1CC (centres undefined)	inactive: 11.4%
O=C(/C=C/c1ccccc1)OC1CN2CCC1CC2 (centres undefined)	inactive: 5.87%
Cc1ccc(C(=O)OC2CN3CCC2CC3)cc1 (centres undefined)	inactive: 12.4%
Nc1cccc([As](=O)(O)c2ccccc2)c1	inactive: -6.58%
O=P1(Nc2ccc(Br)cn2)COc2ccccc2OC1	inactive: 54.3%
NS(=O)(=O)c1cccc(NC(=O)COC(=O)C(O)(c2ccccc2)c2ccccc2)c1	inactive: -23.4%
O=[As](O)(c1cccs1)c1cccs1	inactive: -3.79%
Cc1ccc(OCC(=O)OC2CN3CCC2CC3)cc1 (centres undefined)	inactive: -19.4%
Cc1ccc(S(=O)(=O)N(CCCN)CCCc2c(C)nc(N)[nH]c2=O)cc1	inactive: -5.21%
O=P1(Nc2ncccn2)COc2ccccc2OC1	inactive: -3.94%
CC(C)(C)C(=O)NC(Sc1ncccn1)C(Cl)(Cl)Cl (centres undefined)	inactive: -23.3%
O=P1(N(CCCl)CCCl)NCCC(C(F)(F)F)O1 (centres undefined)	inactive: -10%
Clc1n[nH]nc1-c1nn[nH][15n]1	inactive: -0.709%
CCOP(=O)(NC(=NC(C)c1ccccc1)NC(C)c1ccccc1)OCC (centres undefined)	inactive: -1.38%
O=P1(Nc2ccccn2)COc2ccccc2OC1	inactive: 24.3%
CN(CCCl)Cc1cc(Cl)c(NC2=NCCN2)c(Cl)c1	inactive: -5.84% and inactive: 9.51%
CCOP(=O)(Nc1ccc(C)cn1)OCC	inactive: 1.59%
CC(C)/C=N\N=C(\N)N[N+](=O)[O-]	inactive: 15.5%
CN(C(=O)Cc1ccc(Cl)c(Cl)c1)[C@@H]1CCCC[C@H]1N1CCCC1	inactive: 9.31%
CC1(CBr)Cn2c(nc3ccccc3c2=O)S1 (centres undefined)	inactive: -4.65%
COc1ccccc1CNC(=O)COC(=O)C(O)(c1ccccc1)c1ccccc1	inactive: -18.6%
O=[As](O)(c1cccc(O)c1)c1cccc(O)c1	inactive: -8.69%
Cc1cccc(OCC(=O)OC2CN3CCC2CC3)c1 (centres undefined)	inactive: -17.5%
O=C(OC1CN2CCC1CC2)c1ccc(Cl)cc1 (centres undefined)	inactive: -10.5%
CS(=O)(=O)c1ccc(Cl)c(NC(=O)COC(=O)C(O)(c2ccccc2)c2ccccc2)c1	inactive: 0%
